Laboratory results published in the supplement of paper PMC9931576.
Human monoclonal antibodies against the spike receptor-binding domain (heavy:light variable regions). IC50 against pseudoviruses bearing the spike of naturally observed variants; lower = stronger; >10 µg/ml means not reached at the top dose. No active / inactive call. The stated detection limit is 0.0005 µg/ml; values near or below 0.001 µg/ml lie at the floor of the assay.

Key:
Experiment in all cases: pseudovirus neutralization IC50; higher = weaker neutralization
[1] = target: SARS-CoV-2 Omicron BA.1 spike pseudovirus
Description: (§1)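 Single-round VSV luciferase pseudovirus mixed with antibody dilutions for 1 h and put on Huh-7 cells for about a day; IC50 from the dose curve.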

[2] = target: SARS-CoV-2 Omicron BA.2 spike pseudovirus
Description: as §1

[3] = target: SARS-CoV-2 Omicron BA.2.75 spike pseudovirus
Description: as §1

[4] = target: SARS-CoV-2 Omicron BA.5 spike pseudovirus
Description: as §1

[5] = target: SARS-CoV-2 Omicron BQ.1.1 spike pseudovirus
Description: as §1

[6] = target: SARS-CoV-2 Omicron XBB spike pseudovirus
Description: as §1

[7] = target: SARS-CoV-2 early D614G spike pseudovirus
Description: as §1

B1: BD55-5649 (protein)
chain 1: QVQLQQWGAGLLKPSETLSLTCAVYSESFGGFHWSWLRQSPGKGLEWIGAIHHSRGTNYNPSLQSRVTISLHTSKNQFSLKLSSVSAADTAVYYCARGSDHYDSSGYSLSDLFFDYWGQGALVTVSS
chain 2: QSVLTQPPSVSGAPGQRVTISCTGSSSNIGADYDVHWYQQLPGTAPKLLIYGNTNRPSGVPDRFSGSKSGASASLAITGLQAEDEADYYCQSYDSSLSGPNWVFGGGTKLTVL
pseudovirus neutralization IC50 [1]: 0.159 µg/mL | pseudovirus neutralization IC50 [2]: 2.34 µg/mL | pseudovirus neutralization IC50 [3]: 2.06 µg/mL | pseudovirus neutralization IC50 [4]: 2.19 µg/mL | pseudovirus neutralization IC50 [5]: 1.99 µg/mL | pseudovirus neutralization IC50 [6]: 1.93 µg/mL | pseudovirus neutralization IC50 [7]: 0.0252 µg/mL

B2: BD55-5655 (protein)
chain 1: EVQLLESGGGLVQPGGSLRLSCTASAFTFSTYAMSWVRQAPGKGLEWVSAISRSGTHTYYADSVKGRFSISRDNSKSTLYLQINSLRAEDTAVYYCAKDLPNHVRSFGGGFDYWGQGTLVTVSS
chain 2: DIVMTQTPLSLSVTPGQPAAISCKSSQSLLHSDGETYLFWYLQKPGQSPQLLIHEVSSRFSGVPDRFSGSGSGTDFTLKISRVEAEDVGVYYCMQAMHLPLTFGGGTKVEIK
pseudovirus neutralization IC50 [1]: > 10 µg/mL | pseudovirus neutralization IC50 [2]: > 10 µg/mL | pseudovirus neutralization IC50 [3]: > 10 µg/mL | pseudovirus neutralization IC50 [4]: > 10 µg/mL | pseudovirus neutralization IC50 [5]: > 10 µg/mL | pseudovirus neutralization IC50 [6]: > 10 µg/mL | pseudovirus neutralization IC50 [7]: 0.00639 µg/mL

B3: BD55-1087 (protein)
chain 1: QVQLVQSGAEVKKPGASVKVSCKASGYSISTHSMTWVRQAPGQGLEWMGWVSGYNGDTNYAQRLQDRVTMTTEISTSTAYLELRSLRSDDTAVYYCARGKYDILSGYVWLDPWGQGTLVTVSS
chain 2: DIVMTQSPVSLAVTPGEPASISCRSSQSLLHSSGHNYLDWYVQKPGQSPQVLIYLGSTRASGVPDRFSGSGSGTDFTLKISRVEAEDVGVYYCMQALQTPLTFGGGTKVEIK
pseudovirus neutralization IC50 [1]: > 10 µg/mL | pseudovirus neutralization IC50 [2]: > 10 µg/mL | pseudovirus neutralization IC50 [3]: > 10 µg/mL | pseudovirus neutralization IC50 [4]: > 10 µg/mL | pseudovirus neutralization IC50 [5]: > 10 µg/mL | pseudovirus neutralization IC50 [6]: > 10 µg/mL | pseudovirus neutralization IC50 [7]: > 10 µg/mL

B4: BD55-5662 (protein)
chain 1: QVQLVESGGGVVQPGRSLRLSCEASGFTFSGYAMHWVRQAPGKGLEWVAVISYDASDKYYADSVKGRFTISRDNSKNTLYLEMNSLRAEDTAVYYCARAGVLRNFDWLLSSGFDYWGQGTLVTVSS
chain 2: DIQMTQSPSSLSASVGDRVTITCQASQDISNFLIWYQQKPGKAPKLLIYDAFNLEPGVPSRFSGSGSGTDFTFTISSLQPEDIATYYCQQYHNLPSFGQGTKLEIK
pseudovirus neutralization IC50 [1]: 3.2 µg/mL | pseudovirus neutralization IC50 [2]: > 10 µg/mL | pseudovirus neutralization IC50 [3]: > 10 µg/mL | pseudovirus neutralization IC50 [4]: > 10 µg/mL | pseudovirus neutralization IC50 [5]: > 10 µg/mL | pseudovirus neutralization IC50 [6]: > 10 µg/mL | pseudovirus neutralization IC50 [7]: 0.103 µg/mL

B5: BD55-5693 (protein)
chain 1: QMQLVQSGPEVKKPGTSVKVSCKASGFTFITSAVQWVRQARGQRLEWIGWIAVGSGKTDYAQKFQERVTISRDMSTSTAYLVVSGLRSEDTAVYYCAAPNCNTTTCVDGFDIWGQGTMVTVSS
chain 2: EIVLTQSPGTLSLSPGERATLSCRASQSVSRSYLAWYQQKRGQAPRLLIYAASRRATGIPDRFSGSGSGTDFTLTIPRLEPEDFAVYYCQQYGSSPWTFGQGTKVEIK
pseudovirus neutralization IC50 [1]: 0.307 µg/mL | pseudovirus neutralization IC50 [2]: 0.311 µg/mL | pseudovirus neutralization IC50 [3]: 0.0123 µg/mL | pseudovirus neutralization IC50 [4]: > 10 µg/mL | pseudovirus neutralization IC50 [5]: > 10 µg/mL | pseudovirus neutralization IC50 [6]: > 10 µg/mL | pseudovirus neutralization IC50 [7]: 0.001 µg/mL

B6: BD55-5731 (protein)
chain 1: QVQLVQSGSELKKPGASVKLSCKASGYTFSTYAMKWVRQAPGHGLEWMGWINTNTGNPTYAQGFTGRFVFSLDTSVSTAYLQISSLKAEDTAVYYCARVFCSGGICYDVDYWGQGTLVTVSS
chain 2: QSVLTQPPSASGTPGQRVTISCSGSSSNIGSNFVYWYQHLPGTAPKLLIYRDNHRPSGVPDRFSGSKSATSASLAISGLRSEDEADYYCAAWDDGLGGRIFGGGTKLTVL
pseudovirus neutralization IC50 [1]: > 10 µg/mL | pseudovirus neutralization IC50 [2]: > 10 µg/mL | pseudovirus neutralization IC50 [3]: > 10 µg/mL | pseudovirus neutralization IC50 [4]: > 10 µg/mL | pseudovirus neutralization IC50 [5]: > 10 µg/mL | pseudovirus neutralization IC50 [6]: > 10 µg/mL | pseudovirus neutralization IC50 [7]: 0.546 µg/mL

B7: BD55-1092 (protein)
chain 1: EVQLVQSGAEVKKPGESLRISCEGSGYSFTSHYISWVRQMPGKGLEWMGRIDPSDSYTKYSPSFEGLVSISADKSISTAYLQWRSLKASDTAIYYCARQGFFEKLLYPDAFDIWGQGTFVTVSS
chain 2: DIVMTQSPLSLPVTPGEAASIFCRSSQSLLHSDGHNYLDWYLQKPGQSPQLLIYLGSNRASGVPDRFSGSGSGTDFTLKISRVEAEDVGIYYCMQTLQTHALTFGGGTKVEIK
pseudovirus neutralization IC50 [1]: > 10 µg/mL | pseudovirus neutralization IC50 [2]: > 10 µg/mL | pseudovirus neutralization IC50 [3]: > 10 µg/mL | pseudovirus neutralization IC50 [4]: > 10 µg/mL | pseudovirus neutralization IC50 [5]: > 10 µg/mL | pseudovirus neutralization IC50 [6]: > 10 µg/mL | pseudovirus neutralization IC50 [7]: 0.00225 µg/mL

B8: BD55-5747 (protein)
chain 1: QVQLVQSGAEVKRPGSSVKVSCKASGDTFSTYAISWVRLAPGQGLEWMGRIIPILGIPTYAQKFQGRVTFTADKSTSTVYMELSSLRSDDTAVYYCARSPHLYESRGYYWRFDYWGQGTLVTVSS
chain 2: DIHMTQSPSSLSASVGDRVTINCRASQNISNYLNWYQQKPGKAPKFLIYAASSLQSGVPSRFSGSGSGTDFSLTISSLQPEDFATYFCQQSYSAPTFGGGTKVEIK
pseudovirus neutralization IC50 [1]: 0.0261 µg/mL | pseudovirus neutralization IC50 [2]: 0.046 µg/mL | pseudovirus neutralization IC50 [3]: 0.00461 µg/mL | pseudovirus neutralization IC50 [4]: 0.0511 µg/mL | pseudovirus neutralization IC50 [5]: 0.653 µg/mL | pseudovirus neutralization IC50 [6]: 1.77 µg/mL | pseudovirus neutralization IC50 [7]: 0.00112 µg/mL

B9: BD55-5752 (protein)
chain 1: EVQLVESGGGLVKPGGSLRLSCSASGFIFSDYSMTWVRQAPGKTLEWVSSISRDSGLIFYADSVKGRFTTSRDNAKNSLYLQMSHLRVEDTAIYYCAREGPSSLLAFLDYWGQGARVLVSS
chain 2: DIQMTQSPSSLSASVGDRVTITCRASQYISNYLNWYQLKPGKAPKLLIYGASSLHGGVPSRFSGSGSGTDFTLTISSLQPEDFATYYCQQSYVTPALTFGGGTEVEIK
pseudovirus neutralization IC50 [1]: > 10 µg/mL | pseudovirus neutralization IC50 [2]: > 10 µg/mL | pseudovirus neutralization IC50 [3]: > 10 µg/mL | pseudovirus neutralization IC50 [4]: > 10 µg/mL | pseudovirus neutralization IC50 [5]: > 10 µg/mL | pseudovirus neutralization IC50 [6]: > 10 µg/mL | pseudovirus neutralization IC50 [7]: 1.4 µg/mL

B10: BD55-5770 (protein)
chain 1: EVQLVESGGGLVQPGGSLRLSCAASGFTFSDYWISWVRQAPGKGLEWVANIKHDGSEKYYVDSVKGRFSISRDNAKKSVYLQMNSLRAEDTAVYYCAREGSRDAYGAGIDYFDYWGQGTLVTVSS
chain 2: EVVMTQSPATLSVSPGERATLSCRASLSLSSNLAWYQQKPGQAPRLLIYGASTRATGIPARFSGSGSGTEFTLTISSLQSEDFAVYYCQQYNTWPPEYTFGQGTKLEIK
pseudovirus neutralization IC50 [1]: > 10 µg/mL | pseudovirus neutralization IC50 [2]: > 10 µg/mL | pseudovirus neutralization IC50 [3]: > 10 µg/mL | pseudovirus neutralization IC50 [4]: > 10 µg/mL | pseudovirus neutralization IC50 [5]: > 10 µg/mL | pseudovirus neutralization IC50 [6]: > 10 µg/mL | pseudovirus neutralization IC50 [7]: 2.36 µg/mL

B11: BD55-5784 (protein)
chain 1: QVQLVQSGAEVKKPGASVKVSCRASGYTFTRYYIHWVRQAPGQGLEWMGIINPNGGTPSYAQKFQGRVTMTRDTSTSKVYMELTTLRYEDTAVYYCARDSNMIHHIVAGRPDQFDYWGQGTLVTVSS
chain 2: DIQLTQSPSSLSASVGDRVTITCRASQFINTYLNWYQQQPGKAPRLLIYAASSLQSGVPSRFSGSGSGTDFTLTISSLQPEDFATYYCQQSYVTPPYTFGQGTKLEIK
pseudovirus neutralization IC50 [1]: > 10 µg/mL | pseudovirus neutralization IC50 [2]: > 10 µg/mL | pseudovirus neutralization IC50 [3]: > 10 µg/mL | pseudovirus neutralization IC50 [4]: > 10 µg/mL | pseudovirus neutralization IC50 [5]: > 10 µg/mL | pseudovirus neutralization IC50 [6]: > 10 µg/mL | pseudovirus neutralization IC50 [7]: > 10 µg/mL

B12: BD55-5792 (protein)
chain 1: QVQLVQSGAEVKKPGASVKVSCKASGYTFTDYYMHWVRQAPGQGLEWMGWINPNTGGTNYAQKFQGRVTMTRDTSISTAYMELSRLRSDDTALYYCARPAADFDWLRSGMDVWGQGTTVTVSS
chain 2: DIQMTQSPSSLSASVGDRVTITCRASQSIDNDLTWYQRKPGKAPKLLIFSASSLHSGVPSRFSGSGFGTDFTLTISGLQPEDFATYYCQQSNSSPLTFGQGTKLEIK
pseudovirus neutralization IC50 [1]: > 10 µg/mL | pseudovirus neutralization IC50 [2]: > 10 µg/mL | pseudovirus neutralization IC50 [3]: > 10 µg/mL | pseudovirus neutralization IC50 [4]: > 10 µg/mL | pseudovirus neutralization IC50 [5]: > 10 µg/mL | pseudovirus neutralization IC50 [6]: > 10 µg/mL | pseudovirus neutralization IC50 [7]: 0.364 µg/mL
